In article PMC12319226 (Frontiers in Bioinformatics, 2025):
Residue numbers refer to the chain shown, from its start. “And” between values parts separate entries of the source, which are not always exact repeats. Equal values may be shown once.

How the values were obtained:
Assay in all cases: BLI
Conditions in all cases: both partners purified
[1] = biological target: T1, fHbp m002392 (Neisseria meningitidis; fHbp …, chimera)
T1 chain: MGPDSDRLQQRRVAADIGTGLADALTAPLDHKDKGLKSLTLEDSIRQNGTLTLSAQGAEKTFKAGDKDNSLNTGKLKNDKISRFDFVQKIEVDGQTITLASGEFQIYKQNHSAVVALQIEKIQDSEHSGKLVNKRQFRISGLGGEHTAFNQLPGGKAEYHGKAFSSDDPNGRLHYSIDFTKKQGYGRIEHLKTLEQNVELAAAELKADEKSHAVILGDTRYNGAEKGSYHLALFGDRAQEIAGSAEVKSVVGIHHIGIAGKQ

[2] = biological target: T2, fHbp m002252 (Neisseria meningitidis; fHbp …, chimera)
T2 chain: T1 chain with G223Q, S249T, V251E, G252S

[3] = biological target: T3, fHbp m002413 (Neisseria meningitidis, designed fHbp …, chimera)
T3 chain: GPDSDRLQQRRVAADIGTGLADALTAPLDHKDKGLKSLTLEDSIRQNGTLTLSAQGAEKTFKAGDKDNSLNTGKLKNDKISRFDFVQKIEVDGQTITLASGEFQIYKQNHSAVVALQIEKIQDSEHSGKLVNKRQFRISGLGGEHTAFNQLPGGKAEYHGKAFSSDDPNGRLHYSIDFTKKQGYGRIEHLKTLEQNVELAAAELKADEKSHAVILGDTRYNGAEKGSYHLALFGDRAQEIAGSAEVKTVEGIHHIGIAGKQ

[4] = biological target: T4, fHbp m002415 (Neisseria meningitidis, designed fHbp …, chimera)
T4 chain: T3 chain with G251A

[5] = biological target: T5, fHbp m001935 (Neisseria meningitidis; fHbp …, chimera)
T5 chain: T1 chain with N222G, S249T, G252A

[6] = biological target: T6, fHbp m001929 (Neisseria meningitidis; fHbp …, chimera)
T6 chain: T1 chain with N222G, S249T, V251E, G252A

[7] = biological target: T7, fHbp m001928 (Neisseria meningitidis; fHbp …, chimera)
T7 chain: T1 chain with N222G, S249T, V251E, G252S

B1: chimeric antibody hJAR5 (antibody, V domains shown)
VH: QVQMQQPGAELVKPGASVKLSCKASGYTFISYWMHWVKQRPGRGLEWIGRIAPDTGIIYYNEKFKNKATLTVDTPSSTAYMQLNSLTSEDSAVYYCARYLKYDGSTYRFDYWGQGTTLTVSS
VL: DIVMTQAAPSVPVTPGESVSISCRSSKSLLHSNGNTYLFWFLQRPGQSPQLLIYRMSNLASGVPDRFSGSGSGTSFTLRISRVEAEDVGVYYCMQHLEYPYTFGGGTKLEIK
notes: also called hJAR5-2; humanized JAR5; source: Expi293, purified (MabSelect SuRe, SEC); copies: 2 + 2
B1 was tested, and the koff [1] was 0.000294 s⁻¹ and 0.000305 s⁻¹, the kon [1] was 413000 M⁻¹ s⁻¹ and 443000 M⁻¹ s⁻¹ and the koff [2] was 0.00112 s⁻¹. For the same binder, the kon [2] was 221100 ± 2120 M⁻¹ s⁻¹, the koff [3] was 0.000487 s⁻¹ and the kon [3] was 446800 ± 1750 M⁻¹ s⁻¹. The kon [4] was 393200 ± 1960 M⁻¹ s⁻¹, the kon [5] was 556800 ± 3250 M⁻¹ s⁻¹ and the koff [6] was 0.000105 s⁻¹. The koff [7] was 0.000299 s⁻¹.
